Measured values from US20260382619A1.

Legend:
[1] = tested on: swine alveolar macrophages (PAM cell line); test: cytotoxicity (ASFV example); settings: read-out: cytotoxicity CC50; ASFV example (Table 1)
[2] = tested on: hamster kidney cells (BHK-21 cell line); test: cytotoxicity (FMDV example); settings: read-out: cytotoxicity CC50; FMDV example (Table 10)
[3] = tested on: Feline Infectious Peritonitis Virus (FIPV); test: FIPV infection inhibition in FCWF-4 cells (realtime RT-qPCR)
[4] = tested on: swine kidney cells (PK15 cell line); test: cytotoxicity (CSFV example); settings: read-out: cytotoxicity CC50; CSFV example (Table 2)

SMILES	CC50 [1]	CC50 [2]	IC50 [3]	CC50 [4]
O=c1[nH]c(=O)c2ncn([C@@H](CO)OC(CO)CO)c2[nH]1	> 10 mM	> 10 mM	< 1.02 mM	> 10 mM
Nc1nc2c(ncn2[C@@H](CO)OC(CO)CO)c(=O)[nH]1	> 10 mM	> 10 mM	–	> 10 mM
O=C[C@@H](CO)O[C@H](C=O)n1cnc2c(=O)[nH]cnc21	> 10 mM	> 10 mM	–	> 10 mM
O=C[C@@H](CO)O[C@H](C=O)n1cnc2c(=O)[nH]c(=O)[nH]c21	> 10 mM	–	–	> 10 mM
O=c1[nH]cnc2c1ncn2[C@@H](CO)OC(CO)CO	> 10 mM	> 10 mM	–	> 10 mM
Nc1nc2c(ncn2[C@@H](C=O)O[C@@H](C=O)CO)c(=O)[nH]1	> 6 mM	> 6 mM	–	> 6 mM
